Measured values from several laboratories, pooled; numbers as filed in NIAID ChemDB.

All rows: tests in culture; organism: Aspergillus fumigatus

Lines come from different laboratories, so protocols vary. MIC50, MIC90 and the like: level of inhibition, or share of isolates inhibited. Zone: diameter of growth inhibition. An empty or dashed field is not shown.

{"structure": "COc1ccc(-c2n[nH]c(COc3nc(C(F)(F)F)nc4ccccc34)n2)cc1OC", "endpoint": "MIC100", "strain": "MTCC 343", "value": "50 µg/mL"}
{"structure": "Clc1ccc(C(c2ccccc2)n2ccnc2)cc1", "read by": "agar", "endpoint": "MIC90", "value": "4 µg/mL"}
{"structure": "C=CCc1ccc(Cn2cc(CN3CCN([C@H](C)[C@](O)(Cn4cncn4)c4ccc(F)cc4F)CC3)c3ccccc32)cc1", "read by": "resazurin", "endpoint": "MIC80", "strain": "ATCC 16424", "value": "32 µg/mL"}
{"structure": "Clc1ccc(C(c2ccccc2)N2CCN(CCn3ccnc3)CC2)cc1", "read by": "agar", "endpoint": "MIC90", "value": ">256 µg/mL"}
{"structure": "C[C@@H](N1CCN(Cc2cn(Cc3cccc(C(F)(F)F)c3)c3c(F)cccc23)CC1)[C@](O)(Cn1cncn1)c1ccc(F)cc1F", "read by": "resazurin", "endpoint": "MIC80", "strain": "ATCC 16424", "value": "8 µg/mL"}
{"structure": "c1ccc(C(c2ccccc2)n2ccnc2)cc1", "read by": "agar", "endpoint": "MIC90", "value": "0.5 µg/mL"}
{"structure": "CCC(C)n1ncn(-c2ccc(N3CCN(c4ccc(OC[C@H]5CO[C@](Cn6cncn6)(c6ccc(Cl)cc6Cl)O5)cc4)CC3)cc2)c1=O", "endpoint": "Geometric mean MIC", "strain": "35 isolates", "value": "0.37 µg/mL"}
{"structure": "COc1ccc(C(c2ccc(OC)cc2)n2ccnc2)cc1", "read by": "agar", "endpoint": "MIC90", "value": ">256 µg/mL"}
{"structure": "Clc1ccc(-c2n[nH]c(COc3ncnc4ccccc34)n2)cc1", "endpoint": "MIC100", "strain": "MTCC 343", "value": "25 µg/mL"}
{"structure": "Cc1ccc(C(C)C)cc1", "endpoint": "MIC", "strain": "F17", "value": ">20 µg/mL"}
{"structure": "CCOC(=O)C[C@H](O)C[C@H](O)CC[C@@H]1[C@@H]2C(=CCC[C@@H]2C(=O)O[C@H](C)CC)C=C[C@@H]1C", "dose": "0.5 mg/disc", "read by": "agar diffusion", "endpoint": "zone", "value": "0 mm"}
{"structure": "CCCCCOc1ccc(-c2ccc(-c3ccc(C(=O)N[C@H]4C[C@@H](O)[C@@H](O)NC(=O)[C@@H]5[C@@H](O)[C@@H](C)CN5C(=O)[C@H]([C@H](C)O)NC(=O)[C@H]([C@H](O)[C@@H](O)c5ccc(O)cc5)NC(=O)[C@@H]5C[C@@H](O)CN5C(=O)[C@H]([C@H](C)O)NC4=O)cc3)cc2)cc1", "endpoint": "MFC", "strain": "92-270", "value": ">50 µg/mL"}
{"structure": "COc1ccc(C(c2ccc(OC)cc2)n2cncn2)cc1", "read by": "agar", "endpoint": "MIC90", "value": ">256 µg/mL"}
{"structure": "COc1cc(-c2n[nH]c(COc3nc(C)nc4ccccc34)n2)cc(OC)c1OC", "endpoint": "MIC100", "strain": "MTCC 343", "value": "25 µg/mL"}
{"structure": "CCC1/C=C/C=C/C=C/C=C/C(OC2OC(C)C(O)C(N)C2O)CC2OC(O)(CC(O)CC(O)C(O)/C=C/C(=O)OC1C)CC(O)C2C(=O)O", "read by": "broth dilution", "endpoint": "MFC", "strain": "CGMCC 3.3552", "value": "12.56 µg/mL"}
{"structure": "CN1CCN(c2n[nH]c(N3C(=O)CS[C@@H]3c3ccc4c(c3)OCO4)n2)CC1", "read by": "broth dilution", "endpoint": "MIC80", "strain": "153.9", "value": "3.12 µg/mL"}
{"structure": "C[C@@H](N1CCN(Cc2cn(Cc3ccc(F)cc3F)c3ccc(C#N)cc23)CC1)[C@](O)(Cn1cncn1)c1ccc(F)cc1F", "read by": "resazurin", "endpoint": "MIC80", "strain": "ATCC 16424", "value": "1 µg/mL"}
{"structure": "C[C@@H]1CCC2(OC1)OC1CC3C4C[C@H](OC5O[C@@H](CO)[C@H](O)[C@@H](O)[C@@H]5O)[C@H]5C[C@@H](OC6O[C@H](CO)[C@@H](O)[C@H](O)[C@H]6O)CC[C@]5(C)C4CC[C@]3(C)C1[C@@H]2C", "endpoint": "MFC", "strain": "ATCC 90906", "value": ">20 µg/mL"}
{"structure": "Clc1ccc(C(c2ccccc2)N2CCN(CCn3cncn3)CC2)cc1", "read by": "agar", "endpoint": "MIC90", "value": "256 µg/mL"}
{"structure": "Cc1ccc(-c2n[nH]c(COc3nc(C(F)(F)F)nc4ccccc34)n2)cc1", "endpoint": "MIC100", "strain": "MTCC 343", "value": "50 µg/mL"}
{"structure": "C[C@@H](N1CCN(Cc2cn(Cc3ccc(F)cc3F)c3c(Cl)cccc23)CC1)[C@](O)(Cn1cncn1)c1ccc(F)cc1F", "read by": "resazurin", "endpoint": "MIC80", "strain": "ATCC 16424", "value": "2 µg/mL"}
{"structure": "Nc1ncccc1-c1cc(Cc2ccc(COc3ccccn3)cc2)no1", "read by": "broth dilution", "endpoint": "MIC50", "setting": "10% human serum", "strain": "IFM 51126", "value": "0.25 µg/mL"}
{"structure": "C[C@@H](N1CCN(Cc2cn(Cc3ccc(C(F)(F)F)cc3)c3cc(Cl)ccc23)CC1)[C@](O)(Cn1cncn1)c1ccc(F)cc1F", "read by": "resazurin", "endpoint": "MIC80", "strain": "ATCC 16424", "value": "4 µg/mL"}
{"structure": "CCC(C)CC(C)CCCCCCCCC(=O)N[C@H]1C[C@@H](O)[C@H](NCCN)NC(=O)[C@@H]2[C@@H](O)CCN2C(=O)[C@H]([C@H](O)CCN)NC(=O)[C@H]([C@H](O)[C@@H](O)c2ccc(O)cc2)NC(=O)[C@@H]2C[C@@H](O)CN2C(=O)[C@H]([C@@H](C)O)NC1=O", "read by": "broth dilution", "endpoint": "MEC", "value": "0.06 µg/mL"}
{"structure": "COc1ccc(-c2n[nH]c(COc3ncnc4ccccc34)n2)cc1OC", "endpoint": "MIC100", "strain": "MTCC 343", "value": "25 µg/mL"}
{"structure": "C[C@@H](N1CCN(Cc2cn(Cc3ccc(Cl)cc3Cl)c3c(Cl)cccc23)CC1)[C@](O)(Cn1cncn1)c1ccc(F)cc1F", "read by": "resazurin", "endpoint": "MIC80", "strain": "ATCC 16424", "value": "8 µg/mL"}
{"structure": "Cc1nc(OCc2nc(-c3ccc(O)cc3)n[nH]2)c2ccccc2n1", "endpoint": "MIC100", "strain": "MTCC 343", "value": "50 µg/mL"}
{"structure": "c1ccc(C(c2ccccc2)n2nnc3ccccc32)cc1", "read by": "agar", "endpoint": "MIC90", "value": ">256 µg/mL"}
{"structure": "FC(F)(F)c1nc(OCc2nc(-c3cccs3)n[nH]2)c2ccccc2n1", "endpoint": "MIC100", "strain": "MTCC 343", "value": "12.5 µg/mL"}
{"structure": "Clc1ccc(C(c2ccccc2)n2nnc3ccccc32)cc1", "read by": "agar", "endpoint": "MIC90", "value": ">256 µg/mL"}
{"structure": "Cc1nc(OCc2nc(-c3ccc(F)cc3)n[nH]2)c2ccccc2n1", "endpoint": "MIC100", "strain": "MTCC 343", "value": "50 µg/mL"}
{"structure": "COC(/C=C/c1ccco1)=C1/C(=O)C=C(C)C1=O", "endpoint": "MFC", "strain": "ATCC 90906", "value": ">20 µg/mL"}

Repeating the final 3 entries:

| structure | dose | read by | endpoint | setting | strain | value |
|---|---|---|---|---|---|---|
| Clc1ccc(C(c2ccccc2)n2nnc3ccccc32)cc1 | - | agar | MIC90 | - | - | >256 µg/mL |
| Cc1nc(OCc2nc(-c3ccc(F)cc3)n[nH]2)c2ccccc2n1 | - | - | MIC100 | - | MTCC 343 | 50 µg/mL |
| COC(/C=C/c1ccco1)=C1/C(=O)C=C(C)C1=O | - | - | MFC | - | ATCC 90906 | >20 µg/mL |